Anti-infective test results gathered from many reports (values: NIAID ChemDB through PubChem).

Common to all: growth or infection tests; species: Mycobacterium tuberculosis

MIC bound: limit read from a one-dose screen. a–b is a range or a potency band. Inhibition is in % at the dose shown (toxicity tests: loss of growth or viability). Blank or dashed fields: not listed here. A number after MIC or MFC names an inhibition level or a share of isolates. ECn is the concentration giving n% inhibition of infection, replication or growth. Neighbouring rows are from separate reports.

smiles,strain or isolate,measure,dose,method,cell line,result
CO[C@H]1/C=C/O[C@@]2(C)Oc3c(C)c(O)c4c(O)c(c(/C=N/N5CCN(C)CC5)c(O)c4c3C2=O)NC(=O)/C(C)=C\C=C\[C@H](C)[C@H](O)[C@@H](C)[C@@H](O)[C@@H](C)[C@H](OC(C)=O)[C@@H]1C,H37Rv,EC50,,resazurin,,0.4 µg/mL
CC1=NN(C(=O)CC(=O)Nc2ccc(C(=O)O)cc2)C(=O)C1N=Nc1ccccc1,H37Rv,inhibition,12.5 µg/mL,BACTEC,,0%
O=C(N=Nc1c(O)[nH]c2ccccc12)c1ccco1,H37Rv,MIC50,,resazurin,,>50 µg/mL
CN[C@@H]1[C@H](O[C@H]2[C@H](O[C@@H]3[C@H](O)[C@@H](O)[C@@H](OC(N)=O)[C@@H](O)[C@@H]3N=C(N)N)O[C@@H](C)[C@]2(O)CO)O[C@@H](CO)[C@H](O)[C@H]1O,H37Rv,MIC bound,,BACTEC,,≤12.8 µg/mL
CCCCCCCCOc1cccc(NC(=O)OCCC[NH+]2CCCCC2)c1,My 331/88,MIC,,,,16 µM
O=C(NC1=NS(=O)(=O)c2ccccc2N1c1ccccc1)c1ccc(Cl)nc1,H37Rv (ATCC 27294),MIC,,,,>16 µg/mL
Cc1cccc(C(=O)Nc2nnc(COc3ccc4c(C)cc(=O)oc4c3)o2)c1,H37Rv,EC50,,resazurin,,65.2 µg/mL
C[N+](C)=c1ccc2nc3c(cc(Nc4ccccc4)c4ccccc43)oc-2c1.[Cl-],H37Rv,inhibition,128 µg/mL,BACTEC,,81%
CCCCCCCCCCCCOc1ccccc1NC(=O)OCCC[NH+]1CCCCC1,My 331/88,MIC,,,,8 µM
O=C(CN=C(CN(c1ccccc1)c1ccccc1)Oc1c(Cl)cc(Cl)cc1Cl)N1c2ccccc2Sc2ccccc21,H37Rv,MIC bound,,BACTEC,,>12.5 µg/mL
CO[C@H]1/C=C/O[C@@]2(C)Oc3c(C)c(O)c4c(O)c(c(/C=N/N5CCN(C)CC5)c(O)c4c3C2=O)NC(=O)/C(C)=C\C=C\[C@H](C)[C@H](O)[C@@H](C)[C@@H](O)[C@@H](C)[C@H](OC(C)=O)[C@@H]1C,20 strains,MIC90,,,,2 µg/mL
Nc1c(Br)cc(Br)cc1CNC1CCC(O)CC1,5 isolates,MIC,,,,64 µg/mL
O=C1OC(c2ccc(Cl)cc2)=C/C1=C/c1cc2ccccc2nc1Cl,H37Rv,EC50,,resazurin,,>100 µg/mL
CCOC(=O)/C=C1\Nc2cc(Cl)c(Cl)cc2NC1=O,H37Rv,MIC bound,,BACTEC,,>6.25 µg/mL
COc1cccc(C(N2C(=O)C(=O)c3ccccc32)n2c(O)c(N=NC(=O)c3ccc(-n4cc(-c5ccccc5)nn4)cc3O)c3cc(Cl)ccc32)c1,H37Rv,MIC,,resazurin,,>25 µg/mL
CC1=NN(c2ccccc2)C(=O)C1N=Nc1ccc(S(=O)(=O)Nc2nnc(C)s2)cc1,PAS-R,MIC,,,,3.1 µg/mL
O=C(NNC1=NS(=O)(=O)c2ccccc2N1c1ccccc1)c1ccncc1,Clinical isolates drug-resistant,MIC,,,,>16 µg/mL
CO[C@H]1/C=C/O[C@@]2(C)Oc3c(C)c(O)c4c(O)c(c5c(c4c3C2=O)NC2(CCN(CC(C)C)CC2)N=5)=NC(=O)/C(C)=C\C=C\[C@H](C)[C@H](O)[C@@H](C)[C@@H](O)[C@@H](C)[C@H](OC(C)=O)[C@@H]1C,,MIC90,,GFP,,3.5 µg/mL
NNC(=O)c1ccncc1,H37Rv,MIC,,resazurin,,0.06 µg/mL
O=C1c2ccccc2C(=O)N1N=Cc1ccc(O)c(O)c1,H37Ra,MIC50,,resazurin,,>50 µg/mL
Cc1ccc(C2=C/C(=C/c3cc4cc(C)ccc4nc3Cl)C(=O)O2)cc1,H37Rv,EC50,,resazurin,,>100 µg/mL
O=C(NNC1=NS(=O)(=O)c2ccccc2N1c1ccccc1)c1cccnc1,Clinical isolates drug-sensitive,MIC,,,,>16 µg/mL
O=C(NN=Cc1ccccn1)c1ccc(-n2cc(-c3ccccc3)nn2)cc1O,H37Rv,MIC,,resazurin,,3.12 µg/mL
O=C(CCC(F)(F)F)N1CCC(c2ccncc2F)CC1,H37Rv,EC50,,fluorescence,THP-1,0.05–0.25 µM
CO[C@H]1/C=C/O[C@@]2(C)Oc3c(C)c(O)c4c(O)c(c5c(c4c3C2=O)NC2(CC3CCC(C2)N3)N=5)=NC(=O)/C(C)=C\C=C\[C@H](C)[C@H](O)[C@@H](C)[C@@H](O)[C@@H](C)[C@H](OC(C)=O)[C@@H]1C,,MIC90,,GFP,,10 µg/mL
O=C(CCC(F)(F)F)N1CCC(F)(c2cccnc2)CC1,H37Rv,EC50,,fluorescence,THP-1,<0.05 µM
O=C1OC(=O)c2nc3ccccc3nc21,H37Rv,MIC bound,,BACTEC,,>12.5 µg/mL
Cc1cc(C2=NNC(c3ccc(N(C)C)cc3)C2)ccc1O,H37Rv,MIC,,,,6.25 µg/mL
CC[C@H]1OC(=O)[C@H](C)[C@@H](O[C@H]2C[C@@](C)(OC)[C@@H](O)[C@H](C)O2)[C@H](C)[C@@H](O[C@@H]2O[C@H](C)C[C@H](N(C)C)[C@H]2O)[C@](C)(O)C[C@@H](C)CN(C)[C@H](C)[C@@H](O)[C@]1(C)O,20 strains,MIC50,,,,>128 µg/mL
CCOC(=O)c1c[nH]cc1-c1ccncc1CC,CIP103471,MIC,,,,250 µg/mL
O=C(CCC(F)(F)F)N1CCC(F)(c2cncc(C(F)(F)F)c2)CC1,H37Rv,EC50,,fluorescence,THP-1,<0.05 µM
OC(c1ccccc1)c1cn(Cc2ccc(Cl)cc2Cl)cc1-c1ccccc1,CIP103471,MIC,,,,250 µg/mL
CO[C@H]1/C=C/O[C@@]2(C)Oc3c(C)c(O)c4c(O)c(c5c(c4c3C2=O)NC2(CC3CCC(C2)N3C)N=5)=NC(=O)/C(C)=C\C=C\[C@H](C)[C@H](O)[C@@H](C)[C@@H](O)[C@@H](C)[C@H](OC(C)=O)[C@@H]1C,,MIC90,,GFP,,10 µg/mL
Cn1c(C(=O)N=Nc2c(O)[nH]c3ccc(Br)cc23)cc2ccccc21,H37Rv,MIC50,,resazurin,,>50 µg/mL
CN(C)C(=S)S(=O)(=O)c1ccc(Cl)cc1,H37Rv,MIC,,BACTEC,,8 µg/mL
CN1C(NC(=O)c2ccc(Cl)nc2)=NS(=O)(=O)c2cc(Cl)ccc21,H37Rv (ATCC 27294),MIC,,,,>16 µg/mL
CC(C)C(NC(=O)C(Cc1c[nH]c2ccccc12)NC(=O)OC(C)(C)C)C(=O)NN,H37Rv,MIC bound,,BACTEC,,>12.5 µg/mL
CN1C(NNC(=O)c2cccnc2)=NS(=O)(=O)c2ccc(Cl)cc21,H37Rv (ATCC 27294),MIC,,,,4 µg/mL
Cc1ccc(S(=O)(=O)n2cc(CO)c(-c3ccncc3)c2)cc1,CIP103471,MIC,,,,4 µg/mL
Cc1cc(C(=O)/C=C/c2ccc(N(C)C)cc2)ccc1O,H37Rv,inhibition,6.25 µg/mL,,,91%
O=C1CC2C1C1C=CC2n2c(=O)n(-c3ccccc3)c(=O)n21,H37Rv,inhibition,6.25 µg/mL,resazurin,,-14%
O=C(CCC(F)(F)F)N1CCC(c2cncc(C(F)(F)F)n2)CC1,H37Rv,EC50,,fluorescence,THP-1,0.05–0.25 µM
C/C(O)=C(\C=NC(=S)c1ccncc1)C(=O)Nc1ccccc1C,H37Rv,MIC bound,,resazurin,,>6.25 µg/mL
COc1ccc(/C=C/C(=O)c2ccc(O)c(C)c2)cc1,H37Rv,inhibition,6.25 µg/mL,,,72%
O=C(N=Nc1c(O)[nH]c2ccc(Br)cc12)c1cccs1,H37Rv,MIC50,,resazurin,,>50 µg/mL
COc1nc2ccc(Br)cc2cc1[C@@H](c1ccccc1)[C@@](O)(CCN(C)C)c1cccc2ccccc12,H37Rv,MIC,,resazurin / fluorescence,,0.1 µg/mL
Cc1cc(=O)oc2cc(OCc3nnc(NC(=O)c4cccc(Cl)c4)o3)ccc12,H37Rv,EC50,,resazurin,,52.5 µg/mL
O=C(N=Nc1c(O)[nH]c2ccc([N+](=O)[O-])cc12)c1cccc([N+](=O)[O-])c1,H37Rv,MIC50,,resazurin,,>50 µg/mL
NNC(=O)c1ccncc1,Isolate M0,MIC,,,,0.031 µg/mL
CCOC(=O)c1cn(S(=O)(=O)c2ccc([N+](=O)[O-])cc2)cc1-c1ccncc1,CIP103471,MIC,,,,>250 µg/mL
C[C@@H]1CCC([C@@H](C)C(=O)OCCO)[C@@]23OO[C@@](C)(CCC12)O3,H37Ra,MIC,,resazurin,,12.5 µg/mL
C[C@H]1COc2c(N3CCN(C)CC3)c(F)cc3c(=O)c(C(=O)O)cn1c23,5 isolates drug-resistant,MIC50,,,,0.5 µg/mL
NC(=O)c1cnccn1,20 strains,MIC50,,,,50 µg/mL
Cc1cc(C(=O)/C=C/c2ccc(F)cc2)ccc1O,H37Rv,MIC,,,,>6.25 µg/mL
O=C(N=Nc1c(O)[nH]c2ccc(Cl)cc12)c1ccc(-n2cc(-c3ccccc3)nn2)cc1O,H37Rv,MIC,,resazurin,,3.12 µg/mL
O=c1c2cncnc2sc2nc3ccccc3n12,H37Rv,inhibition,6.25 µg/mL,resazurin,,4%
O=C(N=Nc1c(O)[nH]c2ccccc12)c1cncc(Br)c1,H37Ra,MIC50,,resazurin,,>50 µg/mL
COc1cc(/C=C/C(=O)c2ccc(O)c(C)c2)cc(OC)c1OC,H37Rv,inhibition,6.25 µg/mL,,,77%
CCc1cnccc1-c1c[nH]cc1C(=O)NN,CIP103471,MIC,,,,>250 µg/mL
C=C[C@H]1CN2CC[C@H]1C[C@H]2[C@H](O)c1ccnc2ccccc12,H37Rv,MIC,,BACTEC,,≥128 µg/mL
CN1C(NNC(=O)c2cnccn2)=NS(=O)(=O)c2ccccc21,Clinical isolates drug-sensitive,MIC,,,,0.5–1 µg/mL
Cc1cc(C2=NNC(c3ccco3)C2)ccc1O,H37Rv,MIC,,,,>6.25 µg/mL
COc1cc2nccc3c4ccccc4n(c1=O)c23,H37Rv,inhibition,6.25 µg/mL,resazurin,,62%
C=C/C(C)=C/[C@@]1(C)SC(=O)C(C)=C1O,TLM-resistant,MIC,,,,30 µg/mL
CCCCCOc1ccc(NC(=O)OCCC[NH+]2CCCCC2)cc1,My 331/88,MIC,,,,16 µM
CCOC(=O)/C=C/c1ccc(OC)cc1,BTB08-283,MIC,,resazurin,,485 µM
C=C(C)[C@@H]1[C@H]2C(=O)O[C@@H]1C[C@@]1(C)[C@]2(O)[C@@H]2O[C@@H]2[C@@]12CO2,H37Rv,inhibition,12.5 µg/mL,BACTEC,,28%
CN1C(NC(=O)c2cnccn2)=NS(=O)(=O)c2cc(Cl)ccc21,Clinical isolates drug-resistant,MIC,,,,>16 µg/mL
C=CC(=C)CCC1C(=C)CCC2[C@]1(C)CC[C@@H](OC(C)=O)[C@]2(C)C(=O)O,,MIC,,,,14.4 µg/mL
O=C(c1c(F)c(F)c(F)c(F)c1F)N1CCN(C(=O)c2c(F)c(F)c(F)c(F)c2F)C1=S,H37Rv,inhibition,12.5 µg/mL,BACTEC,,90%
CCCCOc1cccc(NC(=O)OCCC[NH+]2CCCCC2)c1,My 331/88,MIC,,,,32 µM
COc1ccc(/C=N/NC(=O)c2ccco2)cc1OC,H37Rv,inhibition,12.5 µg/mL,BACTEC,,5%
CO[C@H]1/C=C/O[C@@]2(C)Oc3c(C)c(O)c4c(O)c(c5c(c4c3C2=O)N[C@]2(CC[C@@H]3CC[C@H](C2)N3C)N=5)=NC(=O)/C(C)=C\C=C\[C@H](C)[C@H](O)[C@@H](C)[C@@H](O)[C@@H](C)[C@H](OC(C)=O)[C@@H]1C,,MIC90,,GFP,,10 µg/mL
CC(O)C1(O)C(O)CC(OC2c3cc4c(c(O)c3[C@@H]3C[C@@]2(C)OC32C=c3cc[nH]c3=N2)C(=O)c2cccc(O)c2C4=O)OC1C,ETA-R,MIC,,,,0.8 µg/mL
Cc1ccc(N2C(=O)c3cccc([N+](=O)[O-])c3C2=O)c(O)c1,H37Rv,MIC50,,resazurin,,>50 µg/mL
CC(=O)Nc1ccc(/C=C2N=C(/C=C/c3ccccc3)OC\2=O)cc1,H37Rv,inhibition,12.5 µg/mL,BACTEC,,19%
COc1cccc(NC(=O)OCCC[NH+]2CCCCC2)c1,My 331/88,MIC,,,,125 µM
CC(C)=CCOc1cc(NC(=S)c2ccoc2C)ccc1Cl,H37Rv,MIC bound,,BACTEC,,>6.25 µg/mL
COc1ccc(C2CC(c3ccc(O)c(C)c3)=NN2)cc1,H37Rv,inhibition,6.25 µg/mL,,,76%

Repeating the first 7 entries:

smiles	strain or isolate	measure	dose	method	cell line	result
CO[C@H]1/C=C/O[C@@]2(C)Oc3c(C)c(O)c4c(O)c(c(/C=N/N5CCN(C)CC5)c(O)c4c3C2=O)NC(=O)/C(C)=C\C=C\[C@H](C)[C@H](O)[C@@H](C)[C@@H](O)[C@@H](C)[C@H](OC(C)=O)[C@@H]1C	H37Rv	EC50		resazurin		0.4 µg/mL
CC1=NN(C(=O)CC(=O)Nc2ccc(C(=O)O)cc2)C(=O)C1N=Nc1ccccc1	H37Rv	inhibition	12.5 µg/mL	BACTEC		0%
O=C(N=Nc1c(O)[nH]c2ccccc12)c1ccco1	H37Rv	MIC50		resazurin		>50 µg/mL
CN[C@@H]1[C@H](O[C@H]2[C@H](O[C@@H]3[C@H](O)[C@@H](O)[C@@H](OC(N)=O)[C@@H](O)[C@@H]3N=C(N)N)O[C@@H](C)[C@]2(O)CO)O[C@@H](CO)[C@H](O)[C@H]1O	H37Rv	MIC bound		BACTEC		≤12.8 µg/mL
CCCCCCCCOc1cccc(NC(=O)OCCC[NH+]2CCCCC2)c1	My 331/88	MIC				16 µM
O=C(NC1=NS(=O)(=O)c2ccccc2N1c1ccccc1)c1ccc(Cl)nc1	H37Rv (ATCC 27294)	MIC				>16 µg/mL
Cc1cccc(C(=O)Nc2nnc(COc3ccc4c(C)cc(=O)oc4c3)o2)c1	H37Rv	EC50		resazurin		65.2 µg/mL